Pooled drug test results. Numbers come from NIAID ChemDB, via PubChem.

All rows: growth or infection tests; agent: Hepatitis C virus; method: replicon; read-out: EC50

ECn: concentration that inhibits the pathogen or its effect by n%.

SMILES,cells,value
NS(=O)(=O)c1ccc(CNc2nc(NCC(F)(F)F)c3nc(-c4ccc(F)cc4)ccc3n2)c(F)c1,-,<0.1 µM
CCc1cccc(N=C2SC(c3ccc(NC(=O)[C@H]4CCCN4C(=O)OCc4ccccc4)cc3)C(=O)N2Cc2ccco2)c1,Huh7,1–5 µM
O=C(NS(=O)(=O)C1CC1)c1c(-c2ccc[nH]c2=O)c2c3occc3ccc2n1Cc1cc2ccccc2nc1Cl,-,<0.5 µM
COC(=O)Nc1ccc(-c2ccc3nc(NCc4ccc(S(N)(=O)=O)cc4)nc(NCC(F)(F)F)c3n2)cc1,-,<0.1 µM
CS(=O)(=O)NC(=O)c1c(-c2ccc[nH]c2=O)c2c3occc3c(F)cc2n1Cc1cc2cccc(Br)c2o1,-,>1.5 µM
N#CC1(NC(=O)c2ccc(-c3ccc4nc(NCc5ccc(F)cc5)nc(O[C@H]5CCOC5)c4n3)cc2)CC1,-,<0.1 µM
O=C(NS(=O)(=O)C1CC1)c1c(-c2ccc[nH]c2=O)c2c3occc3c(F)cc2n1Cc1ccccc1F,-,<0.5 µM
CN(CC(F)(F)F)c1nc(NCc2ccc(S(N)(=O)=O)cc2)nc2ccc(-c3ccc(F)cc3)nc12,-,<0.1 µM
C[C@H](C(=O)N1CCC[C@@H]1C(=O)Nc1ccc(C2SC(=Nc3ccc(N4CCOCC4)cc3)N(Cc3ccccn3)C2=O)cc1)c1ccccc1,Huh7,<0.1 µM
O=C(O)c1ccc2c(C3CCCCC3)c3n(c2c1)CC(C(=O)N1CCOCC1)=Cc1ccc(Cl)cc1-3,Huh7,1–10 µM
CC(C)(N)C(=O)Nc1ccc(-c2ccc3nc(N)nc(O[C@@H]4CCOC4)c3n2)cc1F,Huh7,<0.3 µM
O=C(NS(=O)(=O)C1CC1)c1c(-c2ccc[nH]c2=O)c2c3ccccc3c(F)cc2n1Cc1cc([N+](=O)[O-])ccc1F,-,<1 µM
O=C(O)c1ccc2c(C3CCCCC3)c3n(c2c1)CCCc1ocnc1-3,Huh7,>10 µM
O=C(O)c1c(-c2ccc[nH]c2=O)c2c3c(ccc2n1Cc1ccccc1F)CCCO3,-,<1 µM
O=C(Nc1ccc(C2SC(=Nc3cccnc3)N(Cc3cccc(F)c3)C2=O)cc1)[C@H]1CCCN1C(=O)OCc1ccccc1,Huh7,<0.1 µM
CCOc1nc(NCc2ccc(C(N)=O)cc2)nc2ccc(-c3ccc(F)cc3)nc12,-,<0.1 µM
CN(C)S(=O)(=O)NC(=O)c1c(-c2ccc[nH]c2=O)c2c3occc3ccc2n1Cc1cc2ccccc2nc1Cl,-,<0.5 µM
C[C@@H](NC(=O)OCc1ccccc1)C(=O)Nc1ccc(C2SC(=Nc3ccc(F)cc3Cl)N(Cc3ccco3)C2=O)cc1,Huh7,1–5 µM
CS(=O)(=O)CCNc1nc(NCc2ccc(F)cc2)nc2ccc(-c3ccc(F)cc3)nc12,-,<0.1 µM
O=C(OCc1ccccc1)[C@@H]1CCCN1C(=O)Nc1ccc(C2SC(=Nc3cccc(F)c3)N(Cc3ccccn3)C2=O)cc1,Huh7,<0.1 µM
CS(=O)(=O)N(CCO)c1cccc(-c2ccc3nc(NCc4ccc(F)cc4)nc(NCC(F)(F)F)c3n2)c1,-,<0.1 µM
O=C(NS(=O)(=O)c1ccccc1)c1ccc2c(C3CCCCC3)c3n(c2c1)CC=Cc1ncccc1-3,Huh7,>10 µM
O=C(O)c1c(-c2ccc[nH]c2=O)c2c3occc3c(F)cc2n1Cc1cc2c(=O)[nH]cnc2cc1F,-,<0.5 µM
O=C(Nc1ccc(C2SC(=Nc3cccc4ccncc34)N(Cc3ccco3)C2=O)cc1)[C@H]1CCCN1C(=O)OCc1ccccc1,Huh7,<0.1 µM
NC(=O)c1cc(Cn2c(C(=O)O)c(-c3ccc[nH]c3=O)c3c4occc4c(F)cc32)cs1,-,<0.5 µM
CC(C)N(C)C(=O)C1=Cc2ccccc2-c2c(C3CCCCC3)c3ccc(C(=O)NS(=O)(=O)N(C)C)cc3n2C1,Huh7,0.01–1 µM
O=C(OCc1ccccc1)[C@@H]1CCCN1C(=O)Nc1ccc(C2SC(=Nc3cccc(F)c3)N(Cc3ccoc3)C2=O)cc1,Huh7,>5 µM
CCOc1nc(NCc2ccc(S(N)(=O)=O)cc2)nc2ccc(-c3ccc(NC(=O)NCCN4CCOCC4)cc3)nc12,-,<0.1 µM
CS(=O)(=O)NC(=O)c1ccc2c(C3CCCCC3)c3n(c2c1)CCCc1ncccc1-3,Huh7,1–10 µM
COc1ccc(CCN2C(=O)C(c3ccc(NC(=O)[C@H]4CCCN4C(=O)OCc4ccccc4)cc3)SC2=Nc2cccc(F)c2)cc1OC,Huh7,1–5 µM
CN(C)S(=O)(=O)NC(=O)c1ccc2c(C3CCCCC3)c3n(c2c1)CC(C(=O)N1CCCOCC1)=Cc1ccccc1-3,Huh7,0.01–1 µM
CC1(C)COc2c1cc(-c1ccc[nH]c1=O)c1[nH]c(C(=O)O)c(-c3ccc[nH]c3=O)c21,-,<0.5 µM
C[C@@H](NC(=O)OCc1ccccc1)C(=O)Nc1ccc(C2SC(=Nc3ccc4c(c3)OCCO4)N(Cc3ccco3)C2=O)cc1,Huh7,<0.1 µM

The last 3 rows once more:

SMILES | cells | value
CN(C)S(=O)(=O)NC(=O)c1ccc2c(C3CCCCC3)c3n(c2c1)CC(C(=O)N1CCCOCC1)=Cc1ccccc1-3 | Huh7 | 0.01–1 µM
CC1(C)COc2c1cc(-c1ccc[nH]c1=O)c1[nH]c(C(=O)O)c(-c3ccc[nH]c3=O)c21 | - | <0.5 µM
C[C@@H](NC(=O)OCc1ccccc1)C(=O)Nc1ccc(C2SC(=Nc3ccc4c(c3)OCCO4)N(Cc3ccco3)C2=O)cc1 | Huh7 | <0.1 µM

a–b is a range or a potency band. An empty or dashed field is not shown. Lines come from different laboratories, so protocols vary.